# Data from article PMC12254355 (Nature Communications, 2025).
# Test system: E. coli AIC222 (polymyxin resistant; colistin-resistant strain)
# Test: Broth microdilution MIC
# Settings: source data of Figure 2a; 80 appears to be a plotting value for no activity at the highest concentration tested
row,SMILES,"MIC, E. coli AIC222"
1,CC[C@H](C)[C@H](NC(=O)[C@H](Cc1ccccc1)NC(=O)[C@H](CCCCN)NC(=O)[C@H](CO)NC(=O)[C@H](CC(N)=O)NC(=O)[C@H](CC(C)C)NC(=O)[C@H](CCSC)NC(=O)[C@H](CCCCN)NC(=O)[C@H](C)NC(=O)[C@H](CCCNC(=N)N)NC(=O)[C@@H](N)CC(C)C)C(=O)N[C@@H](CCCCN)C(=O)N[C@@H](CC(C)C)C(=O)O [Conoserver-5],80
2,CSCC[C@H](NC(=O)[C@H](CCCCN)NC(=O)[C@H](C)NC(=O)[C@H](CCCNC(=N)N)NC(=O)[C@H](CC(C)C)NC(=O)[C@@H](N)CCCNC(=N)N)C(=O)N[C@@H](CCCNC(=N)N)C(=O)N[C@@H](CC(N)=O)C(=O)N[C@@H](CO)C(=O)N[C@@H](CCCCN)C(=O)N[C@@H](CC(C)C)C(=O)N[C@@H](Cc1ccccc1)C(=O)N[C@@H](CCCCN)C(=O)N[C@@H](CC(C)C)C(=O)N[C@H](C(=O)N[C@@H](CCCCN)C(=O)N[C@@H](CCCNC(=N)N)C(=O)O)[C@@H](C)O [Conoserver-10],80
